Anti-infective test results gathered from many reports (values: NIAID ChemDB through PubChem).

All rows: tests on isolated targets; species: HIV-1; protein: Reverse transcriptase

An empty or dashed field is not shown. Lines come from different laboratories, so protocols vary. ICn: concentration for n% inhibition.

structure | strain or isolate | read-out | method | changes | value
Cc1c(Cc2c(F)cccc2F)nc(N(C)C)[nH]c1=O |  | Ki | nucleotide incorporation / radiometric |  | 0.9 µM
COc1ccc2c(c1)N(C(=O)OC(C)C)[C@@H](CSC)C(=S)N2 |  | IC50 | scintillation proximity / radiometric | RT-G190E | >29 µM
Cc1cc(C)nc(NC(=S)N[C@@H](C)c2cccc3ccccc23)c1 |  | IC50 | nucleotide incorporation |  | >100 µM
Nc1ccn([C@H]2CC[C@@H](COP(=O)(O)OP(=O)(O)OP(=O)(O)O)O2)c(=O)n1 |  | Ki | nucleotide incorporation |  | 0.29 µM
CCN1c2ncc(COc3ccc(O)cc3)cc2C(=O)N(C)c2ccc(Cl)nc21 |  | IC50 | nucleotide incorporation / radiometric | RT-Y181C | >1 µM
CCOCn1c(Cc2ccccc2)c(C(C)C)c(=O)[nH]c1=O | IIIB | Ki | RT activity | RT-V106A | 0.73 µM
Cc1ccc(NC(=S)N[C@@H](C)c2ccccc2)nc1 |  | IC50 | nucleotide incorporation |  | >100 µM
Cc1cc(C)c(Oc2ncc(N)c(Nc3ccc(C#N)cc3)n2)c(C)c1 |  | IC50 | absorbance |  | 5.2 µM
Cc1ncc([N+](=O)[O-])n1CCOC(c1ccccc1)c1ccccc1S |  | IC50 | RT activity / nucleotide incorporation |  | 12.3 µM
CC(C)=CCN1C(=O)Nc2ccc(Cl)cc2S1(=O)=O | IIIB | IC50 | RT activity |  | 8.1 µM
C=C(C)[C@@H]1CC[C@]2(C)CC[C@]3(C)[C@H](CC[C@@H]4[C@@]5(C)CC[C@H](OC(C)=O)C(C)(C)[C@@H]5CC[C@]43C)[C@@H]12 |  | IC50 | RT activity / nucleotide incorporation / fluorescence |  | >100 µM
Cc1cnc([N+](=O)[O-])n1CCC(=O)Nc1cccc(O)c1 |  | IC50 | RT activity / nucleotide incorporation |  | >100 µM
Nc1nc2c(ncn2[C@H]2CO[C@@H](COP(=O)(O)OP(=O)(O)OP(=O)(O)O)O2)c(=O)[nH]1 |  | IC50 |  |  | 0.062 µM
Cc1cnc([N+](=O)[O-])n1C(C)C(=O)Nc1cccc(O)c1 |  | IC50 | RT activity / nucleotide incorporation |  | >100 µM
Cc1cn([C@H]2C=C[C@@H](COP(=O)(O)OP(=O)(O)OP(=O)(O)O)O2)c(=O)[nH]c1=O |  | IC50 | nucleotide incorporation / radiometric | RT-V106A P225H | 0.07 µM
CCOCn1c([Se]c2ccccc2)c(C)c(=O)[nH]c1=O |  | IC50 |  |  | 69.8 µM
C[C@@H](NC(=S)Nc1nccs1)c1cccc2ccccc12 |  | IC50 | nucleotide incorporation |  | 12 µM
Cc1cccc2sc(NC(=S)NC[C@H](C)c3ccccc3)nc12 |  | IC50 | nucleotide incorporation |  | >100 µM
CCN1c2ncc(CCc3ccccc3)cc2C(=O)N(C)c2ccc(Cl)nc21 | WT | IC50 | nucleotide incorporation / radiometric |  | <1 µM
Nc1ccn([C@H]2CC[C@@H](COP(=O)(O)OP(=O)(O)OP(=O)(O)O)O2)c(=O)n1 |  | IC50 | nucleotide incorporation / radiometric | RT-V106A P225H | 3.42 µM
C[C@@H](NC(=S)Nc1nc2ccccc2s1)c1cccc2ccccc12 |  | IC50 | nucleotide incorporation |  | 0.44 µM
CCN1c2ncc(COc3ccncc3)cc2C(=O)N(C)c2ccc(Cl)nc21 | WT | IC50 | nucleotide incorporation / radiometric |  | <1 µM
C[C@@H](NC(=S)Nc1ccc(Br)cn1)c1cccc2ccccc12 |  | IC50 | nucleotide incorporation |  | 0.67 µM
Cc1cn([C@H]2C=C[C@@H](COP(=O)(O)NC(C)C(=O)O)O2)c(=O)[nH]c1=O |  | IC50 | RT activity |  | >100 µM
CC(=O)OC[C@H]1O[C@H](Oc2cc3oc(-c4ccccc4)cc(=O)c3c(OCc3ccccc3)c2OCc2ccccc2)[C@@H](OC(C)=O)[C@@H]1OC(C)=O |  | IC50 | RT activity |  | >1000 µg/mL
CC[C@H]1C(=O)Nc2ccc(F)cc2N1C(=O)OC(C)C | WT | IC50 | nucleotide incorporation / radiometric |  | 0.011 µM
CCN1c2ncc(COc3cc[n+]([O-])c(C)c3)cc2C(=O)N(C)c2ccc(Cl)nc21 |  | IC50 | nucleotide incorporation / radiometric | RT-Y181C | <1 µM
CCOCn1c([Se]c2ccccc2)c(CC)c(=O)[nH]c1=O |  | IC50 |  |  | 5.1 µM
Cc1c(C(C)c2c(F)cccc2F)nc(N2CCOCC2)[nH]c1=O | IIIB | IC50 | nucleotide incorporation / radiometric | RT-Y181I | >20 µM
Nc1nc2c(ncn2[C@H]2CC[C@@H](COP(=O)(O)OP(=O)(O)OP(=O)(O)O)O2)c(=O)[nH]1 |  | IC50 | nucleotide incorporation |  | 0.011 µM
Cc1cccc(NC(=S)NC[C@@H](C)c2ccccc2)n1 |  | IC50 | nucleotide incorporation |  | >100 µM
CC(C)=CCOc1cc(NC(=S)c2ccoc2C)ccc1Cl |  | IC50 |  | RT-L100I | 10.2 µM
C[C@@H](CNC(=S)Nc1ccc(Cl)cn1)c1ccccc1 |  | IC50 | nucleotide incorporation |  | 0.1 µM
[B-][P@](=O)(OC[C@@H]1C=C[C@H](n2cc(C)c(=O)[nH]c2=O)O1)OP(=O)(O)OP(=O)(O)O |  | Ki |  |  | 0.0203 µM
CCN1c2ncc(CCOc3ccncc3)cc2C(=O)N(C)c2ccc(Cl)nc21 | WT | IC50 | nucleotide incorporation / radiometric |  | <1 µM
Cc1nc([N+](=O)[O-])cn1CC(=O)CNc1cccc(Cl)c1 |  | IC50 | RT activity / nucleotide incorporation |  | >100 µM
CC(C)=CCN1C(C)C(=O)Nc2ccc(Cl)cc2S1(=O)=O | IIIB | IC50 | RT activity | RT-Y181C | >30 µM
Cc1cc(S(N)(=O)=O)ccc1NC(=O)COc1ccc(Br)c(Oc2cc(C#N)cc(C#N)c2)c1F |  | IC50 | scintillation proximity / radiometric |  | 0.0191 µM
Cc1csc(NC(=S)N[C@H](C)c2cccc3ccccc23)n1 |  | IC50 | nucleotide incorporation |  | 1.17 µM
C[C@@H](CNC(=S)Nc1nccs1)c1ccccc1 |  | IC50 | nucleotide incorporation |  | 10 µM
Cc1cccc(NC(=S)N[C@@H](C)c2cccc3ccccc23)n1 |  | IC50 | nucleotide incorporation |  | >100 µM
CC(C)=CCN1C(=O)c2cccn2-c2ccc(Cl)cc2S1(=O)=O | IIIB | IC50 | RT activity |  | 1.4 µM
Cc1cccc(NC(=S)NC[C@H](C)c2ccccc2)n1 |  | IC50 | nucleotide incorporation |  | 16.7 µM
O=C(O)[C@H]1O[C@@H](Oc2cc3oc(-c4ccccc4)cc(=O)c3c(O)c2O)[C@H](O)[C@@H](O)[C@@H]1O |  | IC50 | RT activity |  | 65.88 µg/mL
CCCSC(=S)N1CCN(C(=S)Nc2ccccc2)CC1 |  | IC50 | RT activity / ELISA |  | 21.47 µg/mL
CC(C)=CCOc1cc(NC(=S)c2ccoc2C)ccc1Cl | IIIB | IC50 | RT activity |  | 0.023 µM
O=[N+]([O-])c1ccnc2c1ccn2[C@H]1CC[C@@H](COP(=O)(O)OP(=O)(O)OP(=O)(O)O)O1 |  | IC50 | RT activity |  | >1000 µM
Nc1nc2c(ncn2[C@H]2CC[C@@H](COP(=O)(O)OP(=O)(O)OP(=O)(O)O)O2)c(=O)[nH]1 |  | IC50 | nucleotide incorporation / radiometric | RT-P225H | 0.086 µM
Cc1cn([C@@H]2O[C@H](CO[Si](C)(C)C(C)(C)C)C3(OS(=O)(=O)C=C3N)[C@H]2O[Si](C)(C)C(C)(C)C)c(=O)n(C)c1=O | WT | IC50 | nucleotide incorporation / radiometric |  | 1.6 µM
CCN1c2ncc(COc3ccccc3)cc2C(=O)N(C)c2ccc(Cl)nc21 |  | IC50 | nucleotide incorporation / radiometric | RT-Y181C | <1 µM
Nc1ncnc2c1ncn2[C@H]1CC[C@@H](COP(=O)(O)OP(=O)(O)OP(=O)(O)O)O1 |  | IC50 | RT activity |  | 0.45 µM
CC(=O)O[C@H]1CC[C@@]2(C)C(CC[C@@]3(C)C4CC[C@@]5(C)CCC(C)(C)C[C@H]5C4=CCC32)C1(C)C |  | IC50 | RT activity / nucleotide incorporation / fluorescence |  | >100 µM
CCOC(=O)Cc1csc(NC(=S)N[C@H](C)c2cccc3ccccc23)n1 |  | IC50 | nucleotide incorporation |  | 0.89 µM
Cc1cn([C@@H]2O[C@H](CO[Si](C)(C)C(C)(C)C)C3(OS(=O)(=O)C=C3N)[C@H]2O[Si](C)(C)C(C)(C)C)c(=O)n(C)c1=O | IIIB | IC50 | RT activity | RT-V106A | >828 µM
O=c1cc(-c2ccccc2)oc2cc(O[C@H]3O[C@H](CO)[C@@H](O)[C@H](O)[C@H]3O)c(OCc3ccccc3)c(O)c12 |  | IC50 | RT activity |  | >1000 µg/mL
Cc1cccc(NC(=S)N[C@@H](C)c2ccccc2)n1 |  | IC50 | nucleotide incorporation |  | >100 µM
Cc1cc(C#N)cc(C)c1Oc1ncc(N)c(Nc2ccc(C#N)cc2)n1 |  | IC50 | absorbance |  | 2.1 µM
CC(C)=CCOc1cc(NC(=S)c2ccoc2C)ccc1Cl | WT | IC50 | nucleotide incorporation / radiometric |  | 0.11 µM
Cc1c(C(C)c2c(F)cccc2F)nc(N(C)C)[nH]c1=O |  | Ki | nucleotide incorporation / radiometric | RT-Y188L | 0.7 µM
Cc1ncc([N+](=O)[O-])n1CCOC(c1ccccc1)c1cccs1 |  | IC50 | RT activity / nucleotide incorporation |  | 11.9 µM
CC(=O)c1ccc(C)cc1NC(C(N)=O)c1c(Cl)cccc1Cl | IIIB | IC50 | RT activity | RT-V106A | 12 µM

For reference, 6 entries again:

CCN1c2ncc(COc3ccc(O)cc3)cc2C(=O)N(C)c2ccc(Cl)nc21 ; read-out: IC50 ; method: nucleotide incorporation / radiometric ; changes: RT-Y181C ; value: >1 µM
C[C@@H](CNC(=S)Nc1nccs1)c1ccccc1 ; read-out: IC50 ; method: nucleotide incorporation ; value: 10 µM
Cc1cn([C@H]2C=C[C@@H](COP(=O)(O)NC(C)C(=O)O)O2)c(=O)[nH]c1=O ; read-out: IC50 ; method: RT activity ; value: >100 µM
Cc1c(Cc2c(F)cccc2F)nc(N(C)C)[nH]c1=O ; read-out: Ki ; method: nucleotide incorporation / radiometric ; value: 0.9 µM
Cc1cn([C@@H]2O[C@H](CO[Si](C)(C)C(C)(C)C)C3(OS(=O)(=O)C=C3N)[C@H]2O[Si](C)(C)C(C)(C)C)c(=O)n(C)c1=O ; strain or isolate: IIIB ; read-out: IC50 ; method: RT activity ; changes: RT-V106A ; value: >828 µM
Cc1cn([C@H]2C=C[C@@H](COP(=O)(O)OP(=O)(O)OP(=O)(O)O)O2)c(=O)[nH]c1=O ; read-out: IC50 ; method: nucleotide incorporation / radiometric ; changes: RT-V106A P225H ; value: 0.07 µM